Measured values as given in PMC4802734 (Cell Chemical Biology, 2016).

Legend:
[1] = system: PrfA-regulated virulence genes in L. monocytogenes EGDe (PrfAWT); details: 100 μM; for expression of the hly gene: compared with the untreated control

Compound	generation time of L. monocytogenes (L. monocytogenes EGDe) [min]	expression of the hly gene [1]	expression of inlA and inlB ([1]; northern blot)	levels of the virulence genes hly, actA, and plcA transcripts ([1]; northern blot)
Cc1ccc(Cc2cc(=O)n3c(c2C2CC2)SC[C@H]3C(=O)O)c2ccccc12 [compound 2]	50	downregulated	unaffected	reduction
O=C(O)[C@@H]1CSc2c(C3CC3)c(Cc3cnc4ccccc4c3)cc(=O)n21 [compound 3]	43	not affected		
